Eleven compounds from patent US10207993B2 (priority 2014, dated 2019) can be followed below.

The experiment deals with H37Rv. As to the kind of experiment: Inhibition of Mycobacterium colony growth in THP1 macrophages (CFU counts). The settings on record: PMA-differentiated THP-1, MOI 10, CFU at 90 hr. Format: cell-based, M. tuberculosis.

The structures appear in SMILES notation. This is a selection: effects in other tests are not listed, and their absence says nothing.

As for `O=C(O[C@@H]1CN2CCC1CC2)[C@@H](O)c1ccccc1`, the “H37Rv % Inhibition at 500 nM” value is on record as 42%.

Turning to `CN1CCC(OC(=O)C(O)(c2ccccc2)c2ccccc2)C1` (centres unmarked), the “H37Rv % Inhibition at 500 nM” value stood at 66%.

`O=C(OC1CNC1)C(O)(c1ccccc1)c1ccccc1`: the “H37Rv % Inhibition at 500 nM” value is recorded as 50%.

Regarding `O=C(OC1CCCNC1)C(O)(c1ccccc1)c1ccccc1` (centres unmarked), the “H37Rv % Inhibition at 500 nM” value is 22%.

On to `O=C(OC1CCCN(Cc2ccccc2)C1)C(O)(c1ccccc1)c1ccccc1` (centres unmarked), for which the “H37Rv % Inhibition at 500 nM” value was 33%.

With `CN1CCC(OC(=O)C(O)(c2ccccc2)c2ccccc2)CC1`, the “H37Rv % Inhibition at 500 nM” value turned out to be 55%.

Turning to `O=C(OC1CN2CCC1CC2)[C@@H](O)c1ccccc1` (some centres unmarked), the “H37Rv % Inhibition at 500 nM” value is listed as 56%.

For the compound `CN(C)C(=O)N1CCCC(OC(=O)C(O)(c2ccccc2)c2ccccc2)C1` (centres unmarked), the “H37Rv % Inhibition at 500 nM” value is reported as 66%.

Take `CCCN1CCCC(OC(=O)C(O)(c2ccccc2)c2ccccc2)C1` (centres unmarked): the “H37Rv % Inhibition at 500 nM” value is 51%.

For the compound `CC(=O)N1CCCC(OC(=O)C(O)(c2ccccc2)c2ccccc2)C1` (centres unmarked), the “H37Rv % Inhibition at 500 nM” value came out at 73%.

As to `O=C(OC1CN(Cc2ccccc2)C1)C(O)(c1ccccc1)c1ccccc1`, the “H37Rv % Inhibition at 500 nM” value turned out to be 77%.
